A mixed list of measured activities; the numbers were collected in NIAID ChemDB.

Shared fields: tests in culture; agent: Candida krusei

MIC50, MIC90 and the like: level of inhibition, or share of isolates inhibited.

smiles | conditions | read by | read-out | strain or isolate | value
Clc1ccc(C(c2ccccc2)n2cncn2)cc1 | - | broth dilution | MFC | - | 256 µg/mL
CC(=O)Nc1ccc(C(=O)N/N=C/c2cccc(O)c2)cc1 | - | broth dilution | EC50 | ATCC 6258 | 34 µM
CCC[CH2][Sn+3].[S-]C(=Nc1ccccc1Cl)N/N=C(\c1ccccc1)c1ccccn1 | - | broth dilution | MIC | ATCC 200298 | 26.12 µM
CCCCCCCCCn1cc[n+](COCCCCCCOC[n+]2ccn(CCCCCCCCC)c2)c1 | - | agar diffusion | MIC100 | ATCC 6258 | 4 µM
CO[C@@]12OC(=O)C(C)=C1C1=C3[C@](C)([C@@H]4C[C@@H]4[C@@]3(O)C[C@@H]3[C@]14OC(=O)C1=C4C[C@H]4[C@](O)(COC(=O)/C(C)=C/COC(=O)CCC(=O)OC1)[C@H]1C[C@H]1[C@]34C)[C@H]2O | - | broth dilution | MIC | ATCC 6258 | >256 µg/mL
COc1cc(NC(C)CCCNC(=O)CC(NC(=O)[C@H](N)CCCN)C(=O)O)c2nc(C(C)(C)C)ccc2c1 | - | broth dilution | EC50 | - | >20 µg/mL
CN(CC(=O)Nc1ccc(F)c(Cl)c1)CC(O)(Cn1cncn1)c1ccc(F)cc1F | - | - | MIC80 | - | 4 µg/mL
O=C(O)O | - | broth dilution | MIC50 | ATCC 6258 | 100 µg/mL
CCCCCCn1cc[n+](COCCCCOC[n+]2ccn(CCCCCC)c2)c1 | - | agar diffusion | MIC100 | ATCC 6258 | 326 µM
O=C(O)c1ccc(C[C@H](C(=O)O)[C@@H](O)C(=O)O)cc1 | - | - | MIC | DSM 6128 | >4 µg/mL
CC1=C2C[C@@H]3[C@](C)(CCC[C@@]3(C)O)C[C@]2(O)OC1=O | - | broth dilution | MIC | ATCC 6258 | >256 µg/mL
C[C@@H](c1ncncc1F)[C@](O)(Cn1cncn1)c1ccc(F)cc1F | - | broth dilution | MIC50 | - | 0.5 µg/mL
C[C@@H](N1CCN(Cc2cn(Cc3cccc(C(F)(F)F)c3)c3c(F)cccc23)CC1)[C@](O)(Cn1cncn1)c1ccc(F)cc1F | - | resazurin | MIC80 | ATCC 6258 | 1 µg/mL
COC(=O)c1c(N)oc2c(C)c(C)c(O)cc12 | - | broth dilution | MIC | KCCM 11655 | 3.2 µg/mL
CC(=O)Nc1ccc(C(=O)N/N=C/c2ccc(N(C)C)cc2)cc1 | - | broth dilution | EC50 | ATCC 6258 | 310 µM
C[C@@H](N1CCN(Cc2cn(Cc3ccc(C(F)(F)F)cc3)c3ccccc23)CC1)[C@](O)(Cn1cncn1)c1ccc(F)cc1F | - | resazurin | MIC80 | ATCC 6258 | 0.5 µg/mL
CCOC(=O)c1c(N)oc2cc(Cl)c(O)cc12 | - | broth dilution | MIC | KCCM 11655 | 3.2 µg/mL
CN(CC(=O)Nc1ccc(Cl)cc1)CC(O)(Cn1cncn1)c1ccc(F)cc1F | - | - | MIC80 | - | 4 µg/mL
CN(Cc1ccc(NS(=O)(=O)c2ccc([N+](=O)[O-])cc2)cc1)CC(O)(Cn1cncn1)c1ccc(F)cc1F | - | resazurin | MIC | 506 | 15.3 µg/mL
C[C@@H](N1CCN(Cc2cn(Cc3ccc(Cl)cc3Cl)c3ccccc23)CC1)[C@](O)(Cn1cncn1)c1ccc(F)cc1F | - | resazurin | MIC80 | ATCC 6258 | 1 µg/mL
CO[N-]c1ncnc2c1[N+](C/C=C(\C)CC/C=C(\C)CC/C=C(\C)CCC=C(C)C)=C=[N+]2C | - | agar | MIC | ATCC 6258 | 2 µg/mL
CC1C(=O)N(CCCCc2ccccc2)C(=O)C1C | - | broth dilution / turbidity | MIC | CCC 117-2000 | 62.5 µg/mL
CCC(C)c1ccc(Cn2cc(CN3CCN([C@H](C)[C@](O)(Cn4cncn4)c4ccc(F)cc4F)CC3)c3ccccc32)cc1 | - | resazurin | MIC80 | ATCC 6258 | 2 µg/mL
CN(Cc1ccc(S(N)(=O)=O)cc1)CC(O)(Cn1cncn1)c1ccc(F)cc1F | - | resazurin | MIC | 506 | 13 µg/mL
CCCCCCCCCCn1cc[n+](COCCCCOC[n+]2ccn(CCCCCCCCCC)c2)c1 | - | agar diffusion | MIC100 | ATCC 6258 | 8 µM
CC(C)=CCC/C(C)=C/CN=C(N)NC/C=C(\C)CCC=C(C)C | - | - | MIC | ATCC 6258 | 62.5 µg/mL
C=CCc1ccc(Cn2cc(CN3CCN([C@H](C)[C@](O)(Cn4cncn4)c4ccc(F)cc4F)CC3)c3ccccc32)cc1 | - | resazurin | MIC80 | ATCC 6258 | 2 µg/mL
Clc1ccc(C(c2ccccc2)n2nnc3ccccc32)cc1 | - | agar | MIC90 | - | >256 µg/mL
C[C@@H](N1CCN(Cc2cn(Cc3ccc(Cl)cc3)c3c(F)cccc23)CC1)[C@](O)(Cn1cncn1)c1ccc(F)cc1F | - | resazurin | MIC80 | ATCC 6258 | 1 µg/mL
COC(=O)c1c(N)oc2c(C)c(C)c(O)c(Sc3cccc(C)c3)c12 | - | broth dilution | MIC | KCCM 11655 | 3.2 µg/mL
Clc1ccccc1C(c1ccccc1)(c1ccccc1)n1ccnc1 | 18 h | - | MIC | Clinical isolates | 4 µg/mL
C[C@@H]1CC(=O)N(CCCCc2ccccc2)C1=O | - | broth dilution / turbidity | MIC | CCC 117-2000 | 62.5 µg/mL
c1ccc(C(c2ccccc2)n2nnc3ccccc32)cc1 | - | broth dilution | MFC | - | >256 µg/mL
C=CCn1cc(CN2CCN([C@H](C)[C@](O)(Cn3cncn3)c3ccc(F)cc3F)CC2)c2ccc(Cl)cc21 | - | resazurin | MIC80 | ATCC 6258 | 0.5 µg/mL
O=C(O[C@@H]1COC(=O)c2cc(O)c(O)c(O)c2-c2c(cc(O)c(O)c2O)C(=O)OC1C1OC(=O)c2cc(O)c(O)c(O)c2-c2c(O)c(O)c(O)c3c2C(=O)OC1[C@H]3O)c1cc(O)c(O)c(O)c1 | - | broth dilution | MIC100 | ATCC 6258 | 580 µg/mL
CCCCCOc1ccc(-c2cc(-c3ccc(C(=O)N[C@H]4C[C@@H](O)[C@@H](O)NC(=O)[C@@H]5[C@@H](O)[C@@H](C)CN5C(=O)[C@H]([C@H](O)CC(N)=O)NC(=O)[C@H]([C@H](O)[C@@H](O)c5ccc(O)c(OS(=O)(=O)O)c5)NC(=O)[C@@H]5C[C@@H](O)CN5C(=O)[C@H]([C@@H](C)O)NC4=O)cc3)no2)cc1 | - | broth dilution | MIC50 | - | 0.13 µg/mL
CC(C)=CCC/C(C)=C/CN(C/C=C(\C)CCC=C(C)C)C(=N)N | - | - | MIC | ATCC 6258 | 62.5 µg/mL
OC(CNCCCOc1ccccc1)(Cn1cncn1)c1ccc(F)cc1F | - | - | EC80 | - | <0.125 µg/mL
CCC[CH2][Sn+3].Fc1ccccc1N=C([S-])N/N=C(\c1ccccc1)c1ccccn1 | - | broth dilution | MIC | ATCC 200298 | 53.68 µM
CCCCn1cc[n+](COCCCOC[n+]2ccn(CCCC)c2)c1 | - | agar diffusion | MIC100 | ATCC 6258 | 2966 µM
Clc1ccc(C(c2ccccc2)n2ccnc2)cc1 | - | broth dilution | MFC | - | 0.5 µg/mL
COc1ccc(N2C(=O)C[C@@H](C)C2=O)cc1 | - | broth dilution / turbidity | MIC | CCC 117-2000 | 62.5 µg/mL
CCCCCCCCCCn1cc[n+](COCCOC[n+]2ccn(CCCCCCCCCC)c2)c1 | - | agar diffusion | MIC100 | ATCC 6258 | 2 µM
COc1ccc(-c2cc(=O)c3c(O)c([C@@H]4O[C@H](CO)[C@@H](O)[C@H](O)[C@H]4O)c(O)cc3o2)cc1O | - | broth dilution | MIC | ATCC 6258 | >500 µg/mL
CCOc1nc([N-]OC)c2c(n1)[N+](C)=C=[N+]2C/C=C(\C)CC/C=C(\C)CC/C=C(\C)CCC=C(C)C | - | agar | MIC | ATCC 6258 | 4 µg/mL
COC(=O)/C(C)=C1\C(=O)[C@H](O)[C@]2(C)C3=C1[C@]14OC(=O)C5=C1C[C@H]1[C@](O)(COC(=O)/C(C)=C/COC(=O)CCC(=O)OC5)[C@H]5C[C@H]5[C@]1(C)[C@@H]4C[C@]3(O)[C@H]1C[C@H]12 | - | broth dilution | MIC | ATCC 6258 | 64 µg/mL
O=C(c1ccccc1)C(c1ccccc1)n1cnc2ccccc21 | - | broth dilution | MFC | - | 128 µg/mL
CCCCCCCCCCn1cc[n+](COCCCCCOC[n+]2ccn(CCCCCCCCCC)c2)c1 | - | agar diffusion | MIC100 | ATCC 6258 | 65 µM
COc1ccc(C(c2ccc(OC)cc2)n2ccnc2)cc1 | - | broth dilution | MFC | - | >256 µg/mL
CCC(C)CC(C)CCCCCCCCC(=O)N[C@H]1C[C@@H](O)[C@H](NCCN)NC(=O)[C@@H]2[C@@H](O)CCN2C(=O)[C@H]([C@H](O)CCN)NC(=O)[C@H]([C@H](O)[C@@H](O)c2ccc(O)cc2)NC(=O)[C@@H]2C[C@@H](O)CN2C(=O)[C@H]([C@@H](C)O)NC1=O | - | broth dilution | MIC50 | ATCC 4363 | 0.25 µg/mL
Cc1ccc(NC(=O)CN(C)CC(O)(Cn2cncn2)c2ccc(F)cc2F)cc1 | - | - | MIC80 | - | 64 µg/mL
CCCCCCCCCCCCCCC1=NCCCC1 | - | - | MIC | ATCC 6258 | 20 µg/mL
C=CCc1ccc(OC)c(OC)c1 | - | turbidity | MIC90 | 191 | 350 µg/mL
COc1cccc(NC(=O)CN(C)CC(O)(Cn2cncn2)c2ccc(F)cc2F)c1 | - | - | MIC80 | - | 64 µg/mL
C[C@@H]1C(=O)N(CCCc2ccccc2)C(=O)[C@@H]1C | - | broth dilution / turbidity | MIC | CCC 117-2000 | 62.5 µg/mL
C[C@@H](N1CCN(Cc2cn(Cc3ccc(Cl)cc3Cl)c3cc(Cl)ccc23)CC1)[C@](O)(Cn1cncn1)c1ccc(F)cc1F | - | resazurin | MIC80 | ATCC 6258 | 2 µg/mL
CCCCCCCCCCCCCCn1cc[n+](COCCCCCOC[n+]2ccn(CCCCCCCCCCCCCC)c2)c1 | - | agar diffusion | MIC100 | ATCC 6258 | 3 µM
CC(C)S(=O)(=O)Nc1ccc(CN(C)CC(O)(Cn2cncn2)c2ccc(F)cc2F)cc1 | - | resazurin | MIC | 8 | 15.1 µg/mL
C[C@@H]1CC(=O)N(c2ccc(F)cc2F)C1=O | - | broth dilution / turbidity | MIC | CCC 117-2000 | 31.3 µg/mL
Cc1coc2c1C(=O)[C@@H]1[C@](C)([C@H](O)CC[C@@]1(C)O)[C@@H]2O | - | broth dilution | MIC | ATCC 6258 | >256 µg/mL
C/C(=N\NC([S-])=Nc1ccccc1[N+](=O)[O-])c1ccccn1.CCC[CH2][Sn+3] | - | broth dilution | MIC | ATCC 200298 | 7.13 µM
Cc1ccc(NC(=O)CN(C)CC(O)(Cn2cncn2)c2ccc(F)cc2F)cc1C | - | - | MIC80 | - | 4 µg/mL
COc1cc(NC(C)CCCNC(=O)CCC(NC(=O)[C@H](N)CCCCN)C(=O)O)c2nc(C(C)(C)C)ccc2c1 | - | broth dilution | MIC | - | >20 µg/mL

The last 6 rows once more:

smiles	conditions	read by	read-out	strain or isolate	value
CC(C)S(=O)(=O)Nc1ccc(CN(C)CC(O)(Cn2cncn2)c2ccc(F)cc2F)cc1	-	resazurin	MIC	8	15.1 µg/mL
C[C@@H]1CC(=O)N(c2ccc(F)cc2F)C1=O	-	broth dilution / turbidity	MIC	CCC 117-2000	31.3 µg/mL
Cc1coc2c1C(=O)[C@@H]1[C@](C)([C@H](O)CC[C@@]1(C)O)[C@@H]2O	-	broth dilution	MIC	ATCC 6258	>256 µg/mL
C/C(=N\NC([S-])=Nc1ccccc1[N+](=O)[O-])c1ccccn1.CCC[CH2][Sn+3]	-	broth dilution	MIC	ATCC 200298	7.13 µM
Cc1ccc(NC(=O)CN(C)CC(O)(Cn2cncn2)c2ccc(F)cc2F)cc1C	-	-	MIC80	-	4 µg/mL
COc1cc(NC(C)CCCNC(=O)CCC(NC(=O)[C@H](N)CCCCN)C(=O)O)c2nc(C(C)(C)C)ccc2c1	-	broth dilution	MIC	-	>20 µg/mL

ECn: concentration that inhibits the pathogen or its effect by n%. Conditions beyond the fields shown may differ between rows. An empty or dashed field is not shown.